PubChem BioAssay AID1259414, Drosophila RNAi Screening Center – 2018
Test: 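Genome-wide screen for host control of endosymbiont load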 (primary screen). Cell system: Drosophila JW18 cells infected with Wolbachia. Reagents: long dsRNA against Drosophila genes, 0.25 µg dsRNA per well of a 384-well plate. Time to read-out: 5 days. Conditions: cells persistently infected with Wolbachia before knock-down; no added drug. Measured: 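Automated imaging of bacterial rRNA staining divided by host cell count, reported as plate-normalised robust z-score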. Reading the numbers: Wolbachia per cell robust z: higher = more Wolbachia per host cell than the plate typical. Rule for the call: 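Active if absolute robust z reaches 1.5 in two or more of three replicates, leaving out multi- or no-target dsRNAs, genes unexpressed in JW18 and A1 wells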.
The screen tested about 24,000 reagents; below is a random part of those that have a named target and a result. Of all reagents, about 1,210 (5%) were called active. 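Inactive calls also include excluded dsRNAs with several or no targets, genes unexpressed in JW18, and well A1, regardless of score.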 Entries without a mark were called inactive. A plus sign joins genes that one reagent is predicted to hit.

CG33332 + CG33331 [DRSC29492]: Wolbachia per cell robust z, rep 1 = 0.833; Wolbachia per cell robust z, rep 2 = -0.674; Wolbachia per cell robust z, rep 3 = 0.0775
CG15579 [DRSC18067]: Wolbachia per cell robust z, rep 1 = -1.27; Wolbachia per cell robust z, rep 2 = 1.13; Wolbachia per cell robust z, rep 3 = 0.726
Dgat2 (Diacylglycerol O-acyltransferase 2) [DRSC06803]: Wolbachia per cell robust z, rep 1 = -5.97; Wolbachia per cell robust z, rep 2 = -4.8; Wolbachia per cell robust z, rep 3 = -3.11
CG2218 [DRSC15428]: Wolbachia per cell robust z, rep 1 = -0.858; Wolbachia per cell robust z, rep 2 = -0.734; Wolbachia per cell robust z, rep 3 = 0.713
CG2218 [DRSC28089]: Wolbachia per cell robust z, rep 1 = 2.32; Wolbachia per cell robust z, rep 2 = 0.0647; Wolbachia per cell robust z, rep 3 = 0.932
CG2269 [DRSC06833]: Wolbachia per cell robust z, rep 1 = -1.14; Wolbachia per cell robust z, rep 2 = -1.18; Wolbachia per cell robust z, rep 3 = -2.59
CG33643 [DRSC37852]: Wolbachia per cell robust z, rep 1 = 0.698; Wolbachia per cell robust z, rep 2 = -0.66; Wolbachia per cell robust z, rep 3 = -0.487
CG7968 [DRSC01903]: Wolbachia per cell robust z, rep 1 = 0.639; Wolbachia per cell robust z, rep 2 = 0.432; Wolbachia per cell robust z, rep 3 = 1.38
CG30271 [DRSC04170]: Wolbachia per cell robust z, rep 1 = 0.219; Wolbachia per cell robust z, rep 2 = 0.497; Wolbachia per cell robust z, rep 3 = 0.73
CG30271 [DRSC30044]: Wolbachia per cell robust z, rep 1 = -0.579; Wolbachia per cell robust z, rep 2 = 0.458; Wolbachia per cell robust z, rep 3 = -8.06
Spn77Bc + Spn77Bb [DRSC11793]: Wolbachia per cell robust z, rep 1 = -0.268; Wolbachia per cell robust z, rep 2 = -0.478; Wolbachia per cell robust z, rep 3 = -0.675
CG30466 [DRSC05556]: Wolbachia per cell robust z, rep 1 = 0.16; Wolbachia per cell robust z, rep 2 = 0.166; Wolbachia per cell robust z, rep 3 = 0.255
